Source: patent US4067986A, “Novel penicillanic acid” (Gist-Brocades N.V., priority 1974, dated 1978)
In brackets after ≈: the same amount, converted by molar mass.

Assays:
[1] = system: Pseudomonas aeruginosa A 1058; test: MIC, agar serial dilution test; type: cell-based
Proteus mirabilis A 1200 [2] = test: MIC, agar serial dilution test; type: cell-based
[3] = system: Salmonella typhimurium R 172; test: MIC, agar serial dilution test; type: cell-based
[4] = system: Diplococcus pneumoniae L 54; test: MIC, agar serial dilution test; type: cell-based
[5] = system: Pasteurella multocida A 723; test: MIC, agar serial dilution test; type: cell-based
Proteus mirabilis L 93 = test: MIC, agar serial dilution test; type: cell-based
[6] = system: Streptococcus faecalis L 80; test: MIC, agar serial dilution test; type: cell-based
[7] = system: Klebsiella pneumoniae A 809; test: MIC, agar serial dilution test; type: cell-based
Haemophilus suis A 2096 = test: MIC, micro serial dilution test; type: cell-based; conditions: micro serial dilution test (brackets)
[8] = system: Pseudomonas aeruginosa A 1058; test: MIC, micro serial dilution test; conditions: micro serial dilution test (brackets)
Proteus mirabilis A 1200 [9] = test: MIC, micro serial dilution test; conditions: micro serial dilution test (brackets)
[10] = system: Staphylococcus aur. A 355; test: MIC, micro serial dilution test; conditions: micro serial dilution test (brackets), tables B-E
Brucella suis A 2126 = test: MIC, micro serial dilution test; conditions: micro serial dilution test (brackets)
Proteus mirabil. L 93 = test: ABA test, antibacterial activity in urine of mice; conditions: urine of 21/2 hr, disc 7 mm
Proteus mirabil. H 3 = test: ABA test, antibacterial activity in urine of mice; conditions: urine of 21/2 hr, disc 7 mm
[11] = system: Staphylococcus aur. A 2001; test: ABA test, antibacterial activity in urine of mice; conditions: urine of 21/2 hr, disc 7 mm
[12] = system: Staphylococcus aur. A 355; test: ABA test, antibacterial activity in urine of mice; conditions: urine of 21/2 hr, disc 7 mm
Escherichia coli U 20 = test: ABA test, antibacterial activity in urine of mice; conditions: urine of 21/2 hr, disc 7 mm
Salmon. typhimur. R 172 = test: ABA test, antibacterial activity in urine of mice; conditions: urine of 21/2 hr, disc 7 mm
[13] = system: Pseudomonas aerug. A 1058; test: ABA test, antibacterial activity in urine of mice; conditions: urine of 21/2 hr, disc 7 mm
Proteus morganii 2241 = test: ABA test, antibacterial activity in urine of mice; conditions: urine of 21/2 hr, disc 7 mm
Proteus rettgeri A 821 [14] = test: ABA test, antibacterial activity in urine of mice; conditions: urine of 21/2 hr, disc 7 mm
Klebsiella pneum. A 809 = test: ABA test, antibacterial activity in urine of mice; conditions: urine of 21/2 hr, disc 7 mm
Salmonella dublin P 43 = test: MIC, agar serial dilution test
[15] = system: Staphylococcus aur. A 355; test: MIC, agar serial dilution test; conditions: tables B-E
Staphyl. aur A 321 = test: MIC, agar serial dilution test; conditions: tables B-D, column beside protection test
Proteus rettgeri A 821 [16] = test: MIC, agar serial dilution test; type: cell-based; conditions: agar serial dilution
[17] = system: Diplococcus pneumoniae L 54; test: MIC, micro serial dilution test; conditions: micro serial dilution test (brackets)
[18] = system: Staphylococcus aur. A 2001; test: MIC, agar serial dilution test; conditions: tables B-E

## COP(=O)(O)NC(=O)N[C@@H](C(=O)N[C@@H]1C(=O)N2[C@@H]1SC(C)(C)[C@@H]2C(=O)O)c1ccc(O)cc1
[1]; agar serial dilution
  MIC: 3 µg/mL (≈ 5.97 µM)
[1]; tables B-E
  MIC: 3 µg/mL (≈ 5.97 µM)
Proteus mirabilis A 1200 [2]; agar serial dilution
  MIC: 0.75 µg/mL (≈ 1.49 µM)
Proteus mirabilis A 1200 [2]; tables B-D, column beside protection test
  MIC: 0.75 µg/mL (≈ 1.49 µM)
[3]; agar serial dilution
  MIC: 6 µg/mL (≈ 11.9 µM)
[3]; tables B-E
  MIC: 6 µg/mL (≈ 11.9 µM)
[4]
  MIC: 6 µg/mL (≈ 11.9 µM)
[5]
  MIC: 3 µg/mL (≈ 5.97 µM)
Proteus mirabilis L 93; agar serial dilution
  MIC: 0.5 µg/mL (≈ 0.995 µM)
Proteus mirabilis L 93; tables B-E
  MIC: 0.5 µg/mL (≈ 0.995 µM)
[6]
  MIC: 6 µg/mL (≈ 11.9 µM)
[7]; agar serial dilution
  MIC: 100 µg/mL (≈ 199 µM)
[7]; tables B-E
  MIC: 100 µg/mL (≈ 199 µM)
Haemophilus suis A 2096
  MIC: 1.2 µg/mL (≈ 2.39 µM)
[8]
  MIC: 4 µg/mL (≈ 7.96 µM)
[8]; tables B-E
  MIC: 4 µg/mL (≈ 7.96 µM)
Proteus mirabilis A 1200 [9]; tables B-D
  MIC: 0.45 µg/mL (≈ 0.896 µM)
[10]
  MIC: 60 µg/mL (≈ 119 µM)
Brucella suis A 2126
  MIC: 1.2 µg/mL (≈ 2.39 µM)
Proteus mirabil. L 93; 100 mg/kg i.p.
  ABA, inhibition zone of urine: 32 mm
Proteus mirabil. L 93; 100 mg/kg or.
  ABA, inhibition zone of urine: 17 mm
Proteus mirabil. H 3; 100 mg/kg i.p.
  ABA, inhibition zone of urine: 28 mm
Proteus mirabil. H 3; 100 mg/kg or.
  ABA, inhibition zone of urine: 14 mm
[11]; 100 mg/kg i.p.
  ABA, inhibition zone of urine: 32 mm
[11]; 100 mg/kg or.
  ABA, inhibition zone of urine: 26 mm
[12]; 100 mg/kg i.p.
  ABA, inhibition zone of urine: 12 mm
[12]; 100 mg/kg or.
  ABA, inhibition zone of urine: 7 mm
Escherichia coli U 20; 100 mg/kg i.p.
  ABA, inhibition zone of urine: 22 mm
Escherichia coli U 20; 100 mg/kg or.
  ABA, inhibition zone of urine: 10 mm
Salmon. typhimur. R 172; 100 mg/kg i.p.
  ABA, inhibition zone of urine: 25 mm
Salmon. typhimur. R 172; 100 mg/kg or.
  ABA, inhibition zone of urine: 16 mm
[13]; 100 mg/kg i.p.
  ABA, inhibition zone of urine: 19 mm
[13]; 100 mg/kg or.
  ABA, inhibition zone of urine: 7 mm
Proteus morganii 2241; 100 mg/kg i.p.
  ABA, inhibition zone of urine: 7 mm
Proteus morganii 2241; 100 mg/kg or.
  ABA, inhibition zone of urine: 7 mm
Proteus rettgeri A 821 [14]; 100 mg/kg i.p.
  ABA, inhibition zone of urine: 26 mm
Proteus rettgeri A 821 [14]; 100 mg/kg or.
  ABA, inhibition zone of urine: 16 mm
Klebsiella pneum. A 809; 100 mg/kg i.p.
  ABA, inhibition zone of urine: 7 mm
Klebsiella pneum. A 809; 100 mg/kg or.
  ABA, inhibition zone of urine: 7 mm
Salmonella dublin P 43
  MIC: 6 µg/mL (≈ 11.9 µM)
[15]
  MIC: 100 µg/mL (≈ 199 µM)
Staphyl. aur A 321
  MIC: 3 µg/mL (≈ 5.97 µM)

## CC1(C)S[C@@H]2[C@H](NC(=O)[C@H](NC(=O)NP(=O)(O)O)c3ccc(O)cc3)C(=O)N2[C@H]1C(=O)O
[1]; agar serial dilution
  MIC: 3 µg/mL (≈ 6.14 µM)
[1]; tables B-E
  MIC: 3 µg/mL (≈ 6.14 µM)
Proteus mirabilis A 1200 [2]; agar serial dilution
  MIC: 3 µg/mL (≈ 6.14 µM)
Proteus rettgeri A 821 [16]
  MIC: 0.5 µg/mL (≈ 1.02 µM)
[7]; agar serial dilution
  MIC: > 100 µg/mL
[7]; tables B-E
  MIC: > 100 µg/mL
Haemophilus suis A 2096
  MIC: 0.9 µg/mL (≈ 1.84 µM)
[8]
  MIC: 3.7 µg/mL (≈ 7.58 µM)
[8]; tables B-E
  MIC: 3.7 µg/mL (≈ 7.58 µM)
Proteus mirabilis A 1200 [9]
  MIC: 1.2 µg/mL (≈ 2.46 µM)
[10]
  MIC: 60 µg/mL (≈ 123 µM)
Brucella suis A 2126
  MIC: 0.9 µg/mL (≈ 1.84 µM)
[17]
  MIC: 12 µg/mL (≈ 24.6 µM)
Proteus mirabil. L 93; 100 mg/kg i.p.
  ABA, inhibition zone of urine: 36 mm
Proteus mirabil. L 93; 100 mg/kg or.
  ABA, inhibition zone of urine: 8 mm
Proteus mirabil. H 3; 100 mg/kg i.p.
  ABA, inhibition zone of urine: 32 mm
Proteus mirabil. H 3; 100 mg/kg or.
  ABA, inhibition zone of urine: 7 mm
Escherichia coli U 20; 100 mg/kg i.p.
  ABA, inhibition zone of urine: 28 mm
Escherichia coli U 20; 100 mg/kg or.
  ABA, inhibition zone of urine: 7 mm
Salmon. typhimur. R 172; 100 mg/kg i.p.
  ABA, inhibition zone of urine: 33 mm
Salmon. typhimur. R 172; 100 mg/kg or.
  ABA, inhibition zone of urine: 16 mm
[13]; 100 mg/kg i.p.
  ABA, inhibition zone of urine: 20 mm
[13]; 100 mg/kg or.
  ABA, inhibition zone of urine: 7 mm
Proteus morganii 2241; 100 mg/kg i.p.
  ABA, inhibition zone of urine: 7 mm
Proteus morganii 2241; 100 mg/kg or.
  ABA, inhibition zone of urine: 7 mm
Proteus rettgeri A 821 [14]; 100 mg/kg i.p.
  ABA, inhibition zone of urine: 24 mm
Proteus rettgeri A 821 [14]; 100 mg/kg or.
  ABA, inhibition zone of urine: 8 mm
Klebsiella pneum. A 809; 100 mg/kg i.p.
  ABA, inhibition zone of urine: 7 mm
Klebsiella pneum. A 809; 100 mg/kg or.
  ABA, inhibition zone of urine: 7 mm
[18]
  MIC: 50 µg/mL (≈ 102 µM)
Salmonella dublin P 43
  MIC: 6 µg/mL (≈ 12.3 µM)
[15]
  MIC: 100 µg/mL (≈ 205 µM)
